Laboratory results published in patent publication US20070161078A1 (ARBOR VITA, published 2007).

Tests used:
Experiment in all cases: G assay (ELISA), AVC database
DLG2 d1 = molecular target: T1, DLG2 d1 (human, UniProt Q15700 92-189)
T1 construct: domain: PDZ d1; also called DLG2 (PDZ #1)

GORASP d1 = molecular target: T2, GORASP d1 (human, UniProt Q9BQQ3 1-108)
T2 construct: domain: PDZ d1; also called GoRasp1 d1

KIAA1284 d1 = molecular target: T3, KIAA1284 d1 (human, UniProt Q9ULD6 179-268)
T3 construct: domain: PDZ d1
T3 sequence (looked up): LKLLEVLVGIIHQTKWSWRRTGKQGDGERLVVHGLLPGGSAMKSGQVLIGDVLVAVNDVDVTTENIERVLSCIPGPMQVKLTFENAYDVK

Lim Mystique d1 = molecular target: T4, Lim Mystique d1 (human, UniProt Q96JY6 1-89)
T4 construct: domain: PDZ d1; also called Lym Mystique (PDZ #1)
T4 sequence (looked up): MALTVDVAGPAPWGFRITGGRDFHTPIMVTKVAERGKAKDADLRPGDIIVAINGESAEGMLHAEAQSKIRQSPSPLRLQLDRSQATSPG

Measured: binding result

B1: TRPM7 (printed as 23-mer KKKKQPG...) (peptide)
peptide: KKKKQPGNSTKESESTNSVRLML
notes: also called 1820
binds: all assays above
